A mixed list of measured activities; the numbers were collected in NIAID ChemDB.

Shared fields: target-level tests; species: HIV-1; target: Reverse transcriptase; endpoint: fold resistance

Conditions beyond the fields shown may differ between rows.

| SMILES | strain | changes | method | result |
|---|---|---|---|---|
| Cc1c(Cc2c(F)cccc2F)nc(Sc2ccccc2)[nH]c1=O |  | Y181I |  | >12.5 |
| Cc1cc2c(cc1C)n1cccc1c(=O)n2CCNC(=S)Nc1ccc(Br)cn1 |  | RT-Y181I | nucleotide incorporation | 19.8 |
| Cc1cn([C@H]2C=C[C@@H](COP(=O)(O)OP(=O)(O)OP(=O)(O)O)O2)c(=O)[nH]c1=O |  | RT-I135A | nucleotide incorporation / radiometric | 0.8 |
| Cc1c(C(C)c2c(F)cccc2F)nc(SC2CCCC2)[nH]c1=O |  | RT-K103N | nucleotide incorporation / radiometric | 8 |
| CCOc1ccccc1N1CCN(C(=O)c2cc3cc4c(cc3[nH]2)OCO4)CC1 | IIIB | RT-P236L |  | 20.7 |
| Cc1c(C(C)c2c(F)cccc2F)nc(SC2CCCC2)[nH]c1=O |  | RT-K103N | nucleotide incorporation / radiometric | 6 |
| Cc1c(Cc2c(Cl)cccc2Cl)nc(SCc2cccc(F)c2)[nH]c1=O |  | RT-181I | nucleotide incorporation / radiometric | >200 |
| Cc1cc(S(N)(=O)=O)ccc1NC(=O)COc1ccc(Cl)cc1C(=O)c1cc(Cl)cc(C#N)c1 |  | RT-L100I | fluorescence | 0.46 |
| CCN1c2ncc(CCOc3ccc(CC(N)=O)c4ccccc34)cc2C(=O)N(C)c2cccnc21 |  | RT-K103N Y181C | nucleotide incorporation / radiometric | 1 |
| CNc1ccc(Cl)cc1S(=O)(=O)c1ccccc1[N+](=O)[O-] |  | RT-L100I |  | 0.455 |
| CC(C)=CCN1C(=O)c2cccn2-c2ccc(Cl)cc2S1(=O)=O | IIIB | RT-Y181C | RT activity | 21.4 |
| CC(C)Nc1cccnc1N1CCN(C(=O)c2cc3cc4c(cc3[nH]2)OCO4)CC1 | IIIB | RT-P236L |  | 19.8 |
| CCN(C)C(=O)Oc1nsnc1-c1c(Cl)cccc1Cl | IIIB-R (RT-Y181C) | RT-Y181C | nucleotide incorporation | 415 |
| Cc1cn([C@@H]2C=C[C@H](COP(=O)(O)OP(=O)(O)OP(=O)(O)O)O2)c(=O)[nH]c1=O |  | RT-M184V |  | 107 |
| CC(C)=CCOc1cc(NC(=S)c2ccoc2C)ccc1Cl |  | RT-V106A |  | 1 |
| Cc1c(C(C)c2c(F)cccc2F)nc(N2CCOCC2)[nH]c1=O | IIIB | RT-Y181I | nucleotide incorporation / radiometric | >6670 |
| CCC1(c2ccc(CNc3ccccc3)cc2)Oc2ccccc2-n2cccc2C1=O |  | RT-Y188L | nucleotide incorporation / radiometric | >111 |
| Cc1c(C(C)c2c(F)cccc2F)nc(N(C)C)[nH]c1=O |  | RT-L100I | nucleotide incorporation / radiometric | 12 |
| CCOc1cccc(C2(CC)Oc3ccccc3-n3cccc3C2=O)c1 |  | RT-Y181I | nucleotide incorporation / radiometric | 2.76 |
| CC(C)=CCN1C(=O)Nc2ccc(Cl)cc2S1(=O)=O | IIIB | RT-L100I | RT activity | 3.7 |
| CNC(=O)Nc1ccc2[nH]c(C(=O)N3CCC(N(C)c4ncccc4NC(C)C)CC3)cc2c1 | IIIB | RT-P236L | nucleotide incorporation | 0 |
| COc1ccc(CSc2nc(Cc3c(Cl)cccc3Cl)c(C)c(=O)[nH]2)c(OC)c1 |  | RT-K103N | nucleotide incorporation / radiometric | >16 |
| CC(C)=CCN1C(C)C(=O)Nc2ccc(Cl)cc2S1(=O)=O | IIIB | RT-Y181C | RT activity | 9.09 |
| Cc1c(Sc2ccccc2)n(COCCO)c(=O)[nH]c1=O |  | RT-Y188L | nucleotide incorporation | >33.3 |
| O=c1c2cccn2c2cccc(F)c2n1CCNC(=S)Nc1ccc(Br)cn1 |  | RT-Y181I | nucleotide incorporation | 22.2 |
| CCNc1cccnc1N1CCN(C(=O)c2cc3cc4c(cc3[nH]2)OCO4)CC1 | IIIB | RT-P236L |  | 50.2 |
| Cc1cn([C@H]2C=C[C@@H](COP(=O)(O)OP(=O)(O)OP(=O)(O)O)O2)c(=O)[nH]c1=O |  | RT-M184V |  | 38.46 |
| CCN1c2ncc(CCOc3ccc(CC(=O)O)c4ccccc34)cc2C(=O)N(C)c2ccc(F)nc21 |  | RT-Y188L | nucleotide incorporation / radiometric | >10 |
| COc1ccc(Sc2nc(Cc3c(Cl)cccc3Cl)c(C)c(=O)[nH]2)cn1 |  | Y181I |  | >114 |
| CCN1c2ncc(CCOc3ccc(CCC(=O)NN)c4ccccc34)cc2C(=O)N(C)c2cccnc21 |  | RT-K103N Y181C | nucleotide incorporation / radiometric | 1–10 |
| O=c1c2cccn2c2ccccc2n1CCNC(=S)Nc1ccc(Cl)cn1 |  | RT-V106A | nucleotide incorporation | 16 |
| Cc1c(Cc2c(Cl)cccc2Cl)nc(SCc2ccc(C(C)C)cc2)[nH]c1=O |  | RT-K103N | nucleotide incorporation / radiometric | ~1 |
| CCC1(c2cccc(N)c2)Oc2ccccc2-n2cccc2C1=O |  | RT-Y181I | nucleotide incorporation / radiometric | >33.3 |
| CCN1c2ncc(CCOc3ccc(S(N)(=O)=O)c4ccccc34)cc2C(=O)N(C)c2cccnc21 |  | RT-Y188L | nucleotide incorporation / radiometric | 1–10 |
| CN(c1ncccc1CO)C1CCN(C(=O)c2cc3cc(NS(C)(=O)=O)ccc3[nH]2)CC1 | IIIB | RT-P236L | nucleotide incorporation | 7 |
| CCN1c2ncccc2C(=O)N(C)c2ccc(-c3ncc[nH]3)nc21 |  | RT-Y181C | nucleotide incorporation | 0.2 |
| CCN1c2ncccc2C(=O)N(C)c2ccc(-c3cc[nH]c3)nc21 |  | RT-K103N | nucleotide incorporation | 1.52 |
| Cc1c(Cc2c(F)cccc2F)nc(Sc2ccc(Cl)cc2)[nH]c1=O |  | RT-K103N |  | >18 |
| O=c1c2cccn2ccn1CCNC(=S)Nc1ccc(Br)cn1 |  | RT-Y181I | nucleotide incorporation | 23.9 |
| Nc1nc2c(ncn2[C@@H]2C=C[C@H](COP(=O)(O)OP(=O)(O)OP(=O)(O)O)C2)c(=O)[nH]1 |  | RT-M184V |  | 3.03 |
| CCN1c2ncccc2C(=O)N(C)c2ccc(-c3cccc(O)c3)nc21 |  | RT-Y181C | nucleotide incorporation | 8 |
| CCN1c2ncc(CCOc3ccc(C(=O)O)c4ccccc34)cc2C(=O)N(C)c2cccnc21 |  | RT-K103N Y181C | nucleotide incorporation / radiometric | 1–10 |
| CCC1(c2cccc(Cl)c2)Cc2ccccc2-n2cccc2C1=O |  | RT-Y181I | nucleotide incorporation / radiometric | >3 |
| Cc1c(Cc2c(Cl)cccc2Cl)nc(Sc2ccccc2)[nH]c1=O |  | Y181I |  | >11 |
| C=C(CC(=O)O)c1ccc(OCCc2cnc3c(c2)C(=O)N(C)c2cccnc2N3CC)c2ccccc12 |  | RT-Y188L | nucleotide incorporation / radiometric | >10 |
| CCCCCCN(C)C(=O)Oc1nsnc1-c1c(Cl)cccc1Cl | IIIB-R (RT-Y181C) | RT-Y181C | nucleotide incorporation | >21.1 |
| CN(C)P(=O)(c1ccccc1)c1c(C(N)=O)[nH]c2ccc(Cl)cc12 |  | RT-K103N |  | >3.57 |
| CCC1(c2cccc(Cl)c2)Oc2ccccc2-n2cccc2C1=O |  | RT-L100I | nucleotide incorporation / radiometric | 16.6 |
| Cc1cc(C)cc(S(=O)(=O)c2c(C(=O)NNCCO)[nH]c3ccc(Cl)cc23)c1 |  | RT-V179D | nucleotide incorporation / radiometric | >666 |
| CCc1c([Se]c2ccccn2)n(COCc2ccccc2)c(=O)[nH]c1=O |  | RT-L100I | RT activity | 3 |
| Cc1c(Cc2c(F)cccc2F)nc(Sc2ccc(F)cc2F)[nH]c1=O |  | RT-K103N |  | >13.3 |
| CCc1c(Sc2ccccn2)n(COCc2ccccc2)c(=O)[nH]c1=O |  | RT-L100I | RT activity | 3 |
| CCC1(c2ccc(COc3ccccc3)cc2)Oc2ccccc2-n2cccc2C1=O |  | RT-Y181I | nucleotide incorporation / radiometric | 4.6 |

a–b is a range or a potency band. An empty or dashed field is not shown. Fold resistance: result on the changed form divided by that on wild type.